{"source": "paper PMC6886872", "about": "“Discovery of a small molecule inhibitor targeting dengue virus NS5 RNA-dependent RNA polymerase” (PLoS Neglected Tropical Diseases, 2019)", "tested_on": "RK-0404678-adapted (P9) DENV2 16681 virus", "details": "nine passages in Vero cells, 50 μM RK-0404678", "data": [{"smiles": "CC(=O)Oc1ccc2oc(=O)sc2c1", "note": "[RK-0404678, (2-Oxo-1,3-benzoxathiol-5-yl) acetate]", "values": [{"measurement": "emergence of resistance after serial passage", "result": "did not gain obvious resistance"}]}]}
